Measured data: PubChem BioAssay AID1259414 (Drosophila RNAi Screening Center, 2018)
Test: 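Fly genes that alter Wolbachia amount inside host cells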 (primary screen). System: Drosophila JW18 cells infected with Wolbachia. Reagent: long dsRNA against Drosophila genes, 0.25 µg dsRNA per well of a 384-well plate. Timing: 5 days. Conditions: cells persistently infected with Wolbachia before knock-down; no added drug. Measured: 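Imaged fluorescence in situ signal for Wolbachia 23S rRNA per DAPI-counted host cell, given as a robust z-score within each plate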. Reading the numbers: Wolbachia per cell robust z: higher = more Wolbachia per host cell than the plate typical. Call rule: 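Active if absolute robust z reaches 1.5 in two or more of three replicates, leaving out multi- or no-target dsRNAs, genes unexpressed in JW18 and A1 wells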.
The deposit covers about 24,000 reagents; below is a random part of those with a known target gene and a result. Over the whole deposit, about 1,210 (5%) are marked active. 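Inactive calls also include excluded dsRNAs with several or no targets, genes unexpressed in JW18, and well A1, regardless of score.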 Entries without a mark were called inactive.

Silencing of Scsalpha1 (GeneID 38447) [DRSC08698] came out at: Wolbachia per cell robust z, rep 1 = 0.873; Wolbachia per cell robust z, rep 2 = 0.616; Wolbachia per cell robust z, rep 3 = 0.961.
Against Scsalpha1 (GeneID 38447) [DRSC26856], the values are Wolbachia per cell robust z, rep 1 = -5.28 (active); Wolbachia per cell robust z, rep 2 = 1.17; Wolbachia per cell robust z, rep 3 = -8.35.
With knock-down of CG31459 (GeneID 318746) [DRSC13380] the results were Wolbachia per cell robust z, rep 1 = 0.966; Wolbachia per cell robust z, rep 2 = 0.536; Wolbachia per cell robust z, rep 3 = 1.26.
After knock-down of CG1965 (GeneID 40842) [DRSC12577], the record shows Wolbachia per cell robust z, rep 1 = -0.582; Wolbachia per cell robust z, rep 2 = 1.45; Wolbachia per cell robust z, rep 3 = 0.396.
CG1965 (GeneID 40842) [DRSC21828] showed Wolbachia per cell robust z, rep 1 = -1.29; Wolbachia per cell robust z, rep 2 = -0.273; Wolbachia per cell robust z, rep 3 = -0.367.
For OSCP1 (GeneID 36300) [DRSC06304], the values are Wolbachia per cell robust z, rep 1 = -0.781; Wolbachia per cell robust z, rep 2 = 0.452; Wolbachia per cell robust z, rep 3 = -2.25.
For nord (GeneID 37882) [DRSC04210], the values are Wolbachia per cell robust z, rep 1 = -3.62; Wolbachia per cell robust z, rep 2 = -0.133; Wolbachia per cell robust z, rep 3 = 1.18.
Against nord (GeneID 37882) [DRSC04361], the values are Wolbachia per cell robust z, rep 1 = -1.22; Wolbachia per cell robust z, rep 2 = 0.735; Wolbachia per cell robust z, rep 3 = 0.0754.
CG5335 (GeneID 37140) [DRSC06931] showed Wolbachia per cell robust z, rep 1 = -0.734; Wolbachia per cell robust z, rep 2 = -0.711; Wolbachia per cell robust z, rep 3 = -1.13.
Against CG5335 (GeneID 37140) [DRSC26565], the values are Wolbachia per cell robust z, rep 1 = 0.196; Wolbachia per cell robust z, rep 2 = 0.687; Wolbachia per cell robust z, rep 3 = -0.753.
Knock-down of Mos (GeneID 36404) [DRSC07258] gave: Wolbachia per cell robust z, rep 1 = -0.715; Wolbachia per cell robust z, rep 2 = 0.187; Wolbachia per cell robust z, rep 3 = 0.294.
Silencing of mira (GeneID 42379) [DRSC16998] came out at: Wolbachia per cell robust z, rep 1 = 1.27; Wolbachia per cell robust z, rep 2 = -0.233; Wolbachia per cell robust z, rep 3 = -0.214.
With knock-down of mira (GeneID 42379) [DRSC26837] the results were Wolbachia per cell robust z, rep 1 = 0.0703; Wolbachia per cell robust z, rep 2 = -0.164; Wolbachia per cell robust z, rep 3 = -0.34.
ND-B14.5AL (GeneID 40477) [DRSC11795] gave Wolbachia per cell robust z, rep 1 = 0.877; Wolbachia per cell robust z, rep 2 = 1.16; Wolbachia per cell robust z, rep 3 = 0.954.
Depletion of ND-B14.5AL (GeneID 40477) [DRSC28992] resulted in: Wolbachia per cell robust z, rep 1 = 0.476; Wolbachia per cell robust z, rep 2 = -0.0519; Wolbachia per cell robust z, rep 3 = -0.959.
RpL23A (GeneID 38208) [DRSC08694] scored Wolbachia per cell robust z, rep 1 = 0.0533; Wolbachia per cell robust z, rep 2 = -0.32; Wolbachia per cell robust z, rep 3 = 2.2.
For RpL23A (GeneID 38208) [DRSC22035] the deposit lists Wolbachia per cell robust z, rep 1 = 0.583; Wolbachia per cell robust z, rep 2 = 1.04; Wolbachia per cell robust z, rep 3 = 1.09.
After knock-down of RpL23A (GeneID 38208) [DRSC25828], the record shows Wolbachia per cell robust z, rep 1 = 1.6 (active); Wolbachia per cell robust z, rep 2 = 5.76; Wolbachia per cell robust z, rep 3 = 3.73.
For CG8907 (GeneID 42050) [DRSC16453] the deposit lists Wolbachia per cell robust z, rep 1 = -1.15; Wolbachia per cell robust z, rep 2 = 0.968; Wolbachia per cell robust z, rep 3 = 1.1.
Knock-down of CG8907 (GeneID 42050) [DRSC27500] resulted in: Wolbachia per cell robust z, rep 1 = 0.641; Wolbachia per cell robust z, rep 2 = 0.153; Wolbachia per cell robust z, rep 3 = -0.444.
After knock-down of Mtp (GeneID 35362) [DRSC03216] the results were Wolbachia per cell robust z, rep 1 = -3.07; Wolbachia per cell robust z, rep 2 = -1.03; Wolbachia per cell robust z, rep 3 = 1.08.
Silencing of CG5800 (GeneID 32742) [DRSC19962] resulted in: Wolbachia per cell robust z, rep 1 = -0.976; Wolbachia per cell robust z, rep 2 = -0.312; Wolbachia per cell robust z, rep 3 = 0.691.
Against CG5800 (GeneID 32742) [DRSC28009] the deposit lists Wolbachia per cell robust z, rep 1 = -0.932; Wolbachia per cell robust z, rep 2 = -0.556; Wolbachia per cell robust z, rep 3 = -1.79.
With knock-down of CG14877 (GeneID 41929) [DRSC15001] the results were Wolbachia per cell robust z, rep 1 = 0.755; Wolbachia per cell robust z, rep 2 = 0.699; Wolbachia per cell robust z, rep 3 = 1.06.
For CG14877 (GeneID 41929) [DRSC30033] the deposit lists Wolbachia per cell robust z, rep 1 = 1.18; Wolbachia per cell robust z, rep 2 = -0.159; Wolbachia per cell robust z, rep 3 = 0.6.
After knock-down of fd102C (GeneID 43843) [DRSC17203], the record shows Wolbachia per cell robust z, rep 1 = 1.47; Wolbachia per cell robust z, rep 2 = -0.732; Wolbachia per cell robust z, rep 3 = 0.873.
Silencing of fd102C (GeneID 43843) [DRSC26567] resulted in: Wolbachia per cell robust z, rep 1 = 0.77; Wolbachia per cell robust z, rep 2 = 0.82; Wolbachia per cell robust z, rep 3 = 0.207.
With knock-down of eIF6 (GeneID 37776) [DRSC04674] the results were Wolbachia per cell robust z, rep 1 = -1.25; Wolbachia per cell robust z, rep 2 = -5.29; Wolbachia per cell robust z, rep 3 = 0.307.
Depletion of eIF6 (GeneID 37776) [DRSC29068] resulted in: Wolbachia per cell robust z, rep 1 = -0.586; Wolbachia per cell robust z, rep 2 = -0.724; Wolbachia per cell robust z, rep 3 = -0.0269.
Against Ref1 (GeneID 44029) [DRSC12497] the deposit lists Wolbachia per cell robust z, rep 1 = 0.691; Wolbachia per cell robust z, rep 2 = -3.5; Wolbachia per cell robust z, rep 3 = -3.09.
For Ref1 (GeneID 44029) [DRSC22387] the deposit lists Wolbachia per cell robust z, rep 1 = 0.301; Wolbachia per cell robust z, rep 2 = -0.446; Wolbachia per cell robust z, rep 3 = 0.112.
